Legend:
Assay in all cases: purified protein
Conditions in all cases: pH 8.4; 37.0 °C
N[C@@H](Cc1ccccc1)C(=O)O = test system: N[C@@H](Cc1ccccc1)C(=O)O
[1] = test system: N[C@@H](Cc1c[nH]c2ccccc12)C(=O)O
[2] = test system: N[C@@H](Cc1ccc(O)cc1)C(=O)O

Substance	Km (N[C@@H](Cc1ccccc1)C(=O)O) [mM]	kcat/Km (N[C@@H](Cc1ccccc1)C(=O)O) [M⁻¹ s⁻¹]	Km [1] [mM]	kcat/Km [1] [M⁻¹ s⁻¹]	Km [2] [mM]	kcat/Km [2] [M⁻¹ s⁻¹]
mArAT (Mycobacterium tuberculosis H37Rv)	0.036 ± 0.001	9.7e+06	6.26 ± 0.43	154000	–	–
mHspAT (Mycobacterium tuberculosis H37Rv)	–	–	–	–	9.76 ± 0.69	320000
